Test results from ChEMBL document CHEMBL3286361, “Design and discovery of flavonoid-based HIV-1 integrase inhibitors targeting both the active site and the interaction with LEDGF/p75” (Bioorg Med Chem, 2014).

Columns and labels:
[1] = biological target: T1, Human immunodeficiency virus type 1 integrase (Human immunodeficiency virus 1, UniProt Q7ZJM1); assay: Inhibition of His6-tagged HIV-1 integrase assessed as decrease in integrase-Flag-LEDGF/p75 interaction preincubated with enzyme for 30 mins followed by addition of Flag-LEDGF/p75 for 1 hr by AlphaScreen assay
[2] = biological target: T1, Human immunodeficiency virus type 1 integrase; assay: Inhibition of recombinant HIV-1 integrase 3'-processing activity using 32P 5' end-labeled linear 21'mer as substrate preincubated for 30 mins prior to substrate challenge by phosphorimaging analysis

Compound: O=c1cc(-c2ccccc2)oc2cc(O)c(O)c(O)c12 [BAICALEIN]
- IC50 [1]: 2.7 µM
- IC50 [2]: 7.5 µM
